Compound potency records, mixed from different reports. Data source: NIAID ChemDB in PubChem.

Shared fields: tests on isolated targets; organism: HIV-1; protein: Integrase; measure: IC50

ICn is the concentration giving n% inhibition.

smiles	result
NS(=O)(=O)c1ccc(NC(=O)c2ccccc2SSc2ccccc2C(=O)Nc2ccc(S(N)(=O)=O)cc2)cc1	>100 µM
C[C@@H](c1ccccc1)n1c(=O)c2c(=O)c3[nH]cc[nH]c3c(=O)c2c1=O	1.05 µM
CC(=O)Oc1ccc(/C=C/C(=O)Nc2cccc3c(S(=O)(=O)NCCc4ccc(F)cc4)cccc23)cc1OC(C)=O	24.6 µg/mL
O=S(=O)(O)Oc1cc2c(ccn2S(=O)(=O)O)c(Cl)c1O	156 µM
O=C(/C=C/c1nccc2ccccc12)/C=C/c1nccc2ccccc12	4.5 µM
COc1cc(/C=C/C(=O)O)ccc1O	9.35 µM
CCCCCCCCCCCCCCCC(=O)NC1C(COP(=O)(O)OC2C(O)C(COP(=O)(O)OC3CC(CO)OC3n3cnc4c(N)ncnc43)OC2n2cnc3c(N)ncnc32)OC(n2cnc3c(N)ncnc32)C1O	>1000 µM
O=C(O)[C@H]1O[C@@H](Oc2cc(O)c3c(=O)cc(-c4ccc(O)cc4)oc3c2)[C@H](O)[C@@H](O)[C@@H]1O	51.3 µg/mL
O=C(/C=C/c1ccc(O)c(O)c1)Nc1cccc2c(S(=O)(=O)Nc3cccc([N+](=O)[O-])c3)cccc12	19.3 µg/mL
O=C(O)CCc1ccc(O)cc1	>100 µM
C=C(CC[C@@H](C)[C@H]1CC[C@@]2(C)C3C[C@H](OS(=O)(=O)[O-])[C@H]4C[C@H](OS(=O)(=O)[O-])[C@@H](OS(=O)(=O)[O-])C[C@]4(C)C3=CC[C@]12C)C(C)(C)C.[Na+].[Na+].[Na+]	1.8 µg/mL
O=C(/C=C/c1ncc(Cl)cc1Cl)/C=C/c1ncc(Cl)cc1Cl	>20 µM
Cc1ccccc1NS(=O)(=O)c1cccc2c(NC(=O)/C=C/c3ccc(O)c(O)c3)cccc12	20.4 µg/mL
C=C(CC[C@@H](C)[C@H]1CC[C@@]2(C)C3C[C@H](OS(=O)(=O)[O-])[C@H]4C[C@H](OS(=O)(=O)[O-])[C@@H](OS(=O)(=O)[O-])C[C@]4(C)C3=CC[C@]12C)C(C)C.[Na+].[Na+].[Na+]	2.3 µg/mL
O=C(NCc1ccc(F)cc1)c1nc[nH]c(=O)c1O	1.5 µM
CC(=O)Oc1ccc(/C=C/C(=O)Nc2cccc3c(S(=O)(=O)NCCc4ccc(Br)cc4)cccc23)cc1OC(C)=O	>100 µg/mL
CC(=O)Nc1ccc(SSc2ccc(NC(C)=O)cc2C(N)=O)c(C(N)=O)c1	>100 µM
O=C(/C=C/c1ccc(O)c(O)c1)Nc1cccc2c(S(=O)(=O)NCCc3ccccc3)cccc12	4.5 µg/mL
C[C@H](c1ccccc1)n1c(=O)c2c(=O)c3[nH]cc[nH]c3c(=O)c2c1=O	2.05 µM
C=Cc1cccnc1/C=C/C(=O)/C=C/c1ncccc1C=C	7.9 µM
O=C(/C=C/c1ccc(O)c(O)c1)Nc1cccc2c(S(=O)(=O)Nc3ccc(F)cc3)cccc12	7.9 µg/mL
C[C@H](NC(=O)c1nc(-c2cccs2)[nH]c(=O)c1O)c1ccccc1	5 µM
CNc1cc2c(=O)c(C(=O)O)cn(C)c2cc1N1CCN(c2ccccn2)CC1	>100 µM
Cc1cccc(NS(=O)(=O)c2cccc3c(NC(=O)/C=C/c4ccc(O)c(O)c4)cccc23)c1C	19.8 µg/mL

The last 2 rows once more:

smiles,result
CNc1cc2c(=O)c(C(=O)O)cn(C)c2cc1N1CCN(c2ccccn2)CC1,>100 µM
Cc1cccc(NS(=O)(=O)c2cccc3c(NC(=O)/C=C/c4ccc(O)c(O)c4)cccc23)c1C,19.8 µg/mL

Rows are shuffled and stem from different studies.